HIV-1 5' UTR: DMS reactivities by position

Values reported by Ye et al. 2022 (doi:10.1038/s41594-022-00746-2).

RNA: 5' end of the HIV-1 NL4-3 genome, made in vitro. Positions 1-437 read:
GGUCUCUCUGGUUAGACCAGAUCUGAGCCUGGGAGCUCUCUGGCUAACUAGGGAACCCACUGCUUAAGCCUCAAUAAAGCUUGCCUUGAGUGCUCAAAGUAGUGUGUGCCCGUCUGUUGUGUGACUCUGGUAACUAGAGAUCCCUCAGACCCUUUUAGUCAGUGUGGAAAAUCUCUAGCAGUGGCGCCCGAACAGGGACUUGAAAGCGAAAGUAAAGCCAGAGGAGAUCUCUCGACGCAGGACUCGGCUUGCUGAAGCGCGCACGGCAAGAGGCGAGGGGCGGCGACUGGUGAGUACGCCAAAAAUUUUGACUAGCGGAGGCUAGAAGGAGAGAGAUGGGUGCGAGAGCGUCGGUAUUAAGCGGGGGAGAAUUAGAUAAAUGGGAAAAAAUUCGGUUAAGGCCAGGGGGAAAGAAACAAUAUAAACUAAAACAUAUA

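Randomly mutated transcripts starting with one, two or three G (1G, 2G, 3G), capped or uncapped, were folded for 30 min at 37 °C. Monomer and dimer bands were cut from native gels after folding in high salt (300 mM KCl, 5 mM MgCl2) or low salt (40 mM KCl, 0.1 mM MgCl2). Gel slices were treated with 170 mM dimethyl sulfate for 15 min at 37 °C and read by mutational profiling against an ethanol control.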

Scale: normalised reactivity, A and C only; low values point to paired or protected bases, higher values to unpaired ones. One numbering serves 1G, 2G and 3G. A position is written with its base.

For A96 (domain PolyA) the result was 1G capped high-salt dimer 0.26; 1G capped low-salt monomer 0.27; 2G uncapped low-salt monomer 0.27. A97 (domain PolyA) gave 1G capped high-salt dimer 0.33; 1G capped low-salt monomer 0.47; 2G uncapped low-salt monomer 0.47. A98 (domain PolyA) read 1G capped high-salt dimer 0.30; 1G capped low-salt monomer 0.39; 2G uncapped low-salt monomer 0.39. A101 (domain PolyA) read 1G capped high-salt dimer 0.16; 1G capped low-salt monomer 0.20; 2G uncapped low-salt monomer 0.19. C109 (domain U5) read 1G capped high-salt dimer 0.23; 1G capped low-salt monomer 0.15; 2G uncapped low-salt monomer 0.13. C110 (domain U5) gave 1G capped high-salt dimer 0.19; 1G capped low-salt monomer 0.15; 2G uncapped low-salt monomer 0.15. C111 (domain U5) gave 1G capped high-salt dimer 0.25; 1G capped low-salt monomer 0.25; 2G uncapped low-salt monomer 0.28. C114 gave 1G capped high-salt dimer 0.29; 1G capped low-salt monomer 0.20; 2G uncapped low-salt monomer 0.20. With A124 the assay gave 1G capped high-salt dimer 0.93; 1G capped low-salt monomer 0.99; 2G uncapped low-salt monomer 1.17.

For C125 (domain PAS) the result was 1G capped high-salt dimer 0.10; 1G capped low-salt monomer 0.09; 2G uncapped low-salt monomer 0.06. C127 (domain PAS) gave 1G capped high-salt dimer 0.04; 1G capped low-salt monomer 0.04; 2G uncapped low-salt monomer 0.03. A132 (domain PBS) gave 1G capped high-salt dimer 0.59; 1G capped low-salt monomer 0.52; 2G uncapped low-salt monomer 0.54. With A133 (domain PBS) the assay gave 1G capped high-salt dimer 1.54; 1G capped low-salt monomer 1.51; 2G uncapped low-salt monomer 1.50. For C134 (domain PBS) the result was 1G capped high-salt dimer 0.15; 1G capped low-salt monomer 0.15; 2G uncapped low-salt monomer 0.14. With A136 (domain PBS) the assay gave 1G capped high-salt dimer 0.10; 1G capped low-salt monomer 0.10; 2G uncapped low-salt monomer 0.10. A138 (domain PBS) gave 1G capped high-salt dimer 0.11; 1G capped low-salt monomer 0.13; 2G uncapped low-salt monomer 0.14. A140 (domain PBS) gave 1G capped high-salt dimer 0.32; 1G capped low-salt monomer 0.42; 2G uncapped low-salt monomer 0.42. With C142 (domain PBS) the assay gave 1G capped high-salt dimer 0.08; 1G capped low-salt monomer 0.07; 2G uncapped low-salt monomer 0.07.

For C143 (domain PBS) the result was 1G capped high-salt dimer 0.04; 1G capped low-salt monomer 0.04; 2G uncapped low-salt monomer 0.03. C144 (domain PBS) read 1G capped high-salt dimer 0.04; 1G capped low-salt monomer 0.04; 2G uncapped low-salt monomer 0.03. For C146 (domain PBS) the result was 1G capped high-salt dimer 0.12; 1G capped low-salt monomer 0.11; 2G uncapped low-salt monomer 0.12. With A147 (domain PBS) the assay gave 1G capped high-salt dimer 0.46; 1G capped low-salt monomer 0.44; 2G uncapped low-salt monomer 0.43. A149 (domain PBS) gave 1G capped high-salt dimer 0.07; 1G capped low-salt monomer 0.12; 2G uncapped low-salt monomer 0.12. With C150 (domain PBS) the assay gave 1G capped high-salt dimer 0.04; 1G capped low-salt monomer 0.08; 2G uncapped low-salt monomer 0.08. For C151 (domain PBS) the result was 1G capped high-salt dimer 0.74; 1G capped low-salt monomer 0.77; 2G uncapped low-salt monomer 0.79. C152 (domain PBS) read 1G capped high-salt dimer 0.89; 1G capped low-salt monomer 0.82; 2G uncapped low-salt monomer 0.81. With A157 (domain PBS) the assay gave 1G capped high-salt dimer 0.99; 1G capped low-salt monomer 0.90; 2G uncapped low-salt monomer 0.89.

Extract of 2 entries:

{"position": "A149", "domain": "PBS", "1G capped high-salt dimer": 0.07, "1G capped low-salt monomer": 0.12, "2G uncapped low-salt monomer": 0.12}
{"position": "C127", "domain": "PAS", "1G capped high-salt dimer": 0.04, "1G capped low-salt monomer": 0.04, "2G uncapped low-salt monomer": 0.03}